Results deposited as PubChem BioAssay AID1259414 (Drosophila RNAi Screening Center, 2018)
Aim: 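Fly genes that alter Wolbachia amount inside host cells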 (primary screen). Cells: Drosophila JW18 cells infected with Wolbachia. Reagent: long dsRNA against Drosophila genes, 0.25 µg dsRNA per well of a 384-well plate. Timing: 5 days. Challenge: cells persistently infected with Wolbachia before knock-down; no added drug. Measured: 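Imaged fluorescence in situ signal for Wolbachia 23S rRNA per DAPI-counted host cell, given as a robust z-score within each plate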. Direction: Wolbachia per cell robust z: higher = more Wolbachia per host cell than the plate typical. Hit rule: 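Hit when robust z is 1.5 or more, or -1.5 or less, in at least two of three replicates; excludes dsRNAs with several or no targets, genes not expressed in JW18 and well A1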.
The deposit covers about 24,000 reagents; below is an unselected part of those that have a named target and a result. In the full data, about 1,210 (5%) are marked active. 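Inactive calls also include excluded dsRNAs with several or no targets, genes unexpressed in JW18, and well A1, regardless of score.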 Entries without a mark were called inactive.

CG18130 (GeneID 32161) [DRSC19790]
- Wolbachia per cell robust z, rep 1: -4.54
- Wolbachia per cell robust z, rep 2: -3.49
- Wolbachia per cell robust z, rep 3: -0.583

CG18130 (GeneID 32161) [DRSC24767]
- Wolbachia per cell robust z, rep 1: 0.918
- Wolbachia per cell robust z, rep 2: -0.0109
- Wolbachia per cell robust z, rep 3: 0.0648

Hayan (GeneID 32831) [DRSC19989]
- Wolbachia per cell robust z, rep 1: -4.44
- Wolbachia per cell robust z, rep 2: -6.4
- Wolbachia per cell robust z, rep 3: 0.884

Hayan (GeneID 32831) [DRSC22231]
- Wolbachia per cell robust z, rep 1: 0.217
- Wolbachia per cell robust z, rep 2: 1.09
- Wolbachia per cell robust z, rep 3: 1.1

Hayan (GeneID 32831) [DRSC26434]
- Wolbachia per cell robust z, rep 1: 1.21
- Wolbachia per cell robust z, rep 2: 0.965
- Wolbachia per cell robust z, rep 3: 0.631

ft (GeneID 33627) [DRSC00819]
- Wolbachia per cell robust z, rep 1: 1.28
- Wolbachia per cell robust z, rep 2: -0.609
- Wolbachia per cell robust z, rep 3: -0.167

ft (GeneID 33627) [DRSC40743]
- Wolbachia per cell robust z, rep 1: -0.249 (active)
- Wolbachia per cell robust z, rep 2: -1.53
- Wolbachia per cell robust z, rep 3: -1.67

2 entries from above, set out differently.
{"predicted target": "Hayan (GeneID 32831)", "DRSC id": "DRSC26434", "Wolbachia per cell robust z, rep 1": 1.21, "Wolbachia per cell robust z, rep 2": 0.965, "Wolbachia per cell robust z, rep 3": 0.631}
{"predicted target": "ft (GeneID 33627)", "DRSC id": "DRSC00819", "Wolbachia per cell robust z, rep 1": 1.28, "Wolbachia per cell robust z, rep 2": -0.609, "Wolbachia per cell robust z, rep 3": -0.167}

Additional entries follow:
CG34281 (GeneID 50039) [DRSC14807]
- Wolbachia per cell robust z, rep 1: 0.449
- Wolbachia per cell robust z, rep 2: 0.49
- Wolbachia per cell robust z, rep 3: 1.02

CG34281 (GeneID 50039) [DRSC30111]
- Wolbachia per cell robust z, rep 1: 0.551
- Wolbachia per cell robust z, rep 2: 1.13
- Wolbachia per cell robust z, rep 3: 1.07

CG15196 (GeneID 32084) [DRSC19643]
- Wolbachia per cell robust z, rep 1: 0.776
- Wolbachia per cell robust z, rep 2: -0.704
- Wolbachia per cell robust z, rep 3: -0.831

CG15196 (GeneID 32084) [DRSC24591]
- Wolbachia per cell robust z, rep 1: 0.437
- Wolbachia per cell robust z, rep 2: 0.7
- Wolbachia per cell robust z, rep 3: 0.505

D2hgdh (GeneID 31184) [DRSC18577]
- Wolbachia per cell robust z, rep 1: 0.0576
- Wolbachia per cell robust z, rep 2: -0.647
- Wolbachia per cell robust z, rep 3: 0.398

D2hgdh (GeneID 31184) [DRSC25824]
- Wolbachia per cell robust z, rep 1: 0.377
- Wolbachia per cell robust z, rep 2: -0.662
- Wolbachia per cell robust z, rep 3: -3.47
